From the supplement of paper PMC9931576 come the findings set out here.

B1: BD56-1354 (protein)
chain 1: EVQLVESGGGLVQPGGSLRLSCAASGIIVSRNYMSWVRQAPGKGLEWVSVIYSGGSTYYADSVKGRFIISRDNSKNTLNLQMNSLRAEDTAVYYCARDSRINGMDVWGQGTTVTVSS
chain 2: DIQMTQSPSSLSASVGDRVTITCQASQDINNYLNWFQQKPGKAPKLLIYDASSLETGVPSRFSGSGSGTDFTFTISSLQPEDIATYYCQQYDNLPPWTFGQGTKVEIK
B2: BD56-1334 (protein)
chain 1: QVQLVQSGAEVKKPGASVKLSCKTSGYTFTTYHIHWVRQAPGQGLEWMGIINPSGGSRRYAQKFQGRVSMTGDTSASTVYMELSSLRSEDTAIYYCARELVVPAAGYMDVWGKGTTLTVSS
chain 2: SYVLTQPPSVSVAPGKTARVTCGGNNIGSTSVHWYQQKPGQAPVLVVYDDSDRPSGIPERFSGSNSGNTATLTISRVEAGDEADYYCQVFDGSSDHFYVFGSGTKVTVL
B3: BD56-1390 (protein)
chain 1: EVQLVESGGGLIQPGGSLRLSCEASEFIVSSNYMSWVRQAPGKGLEWVSIIYSGGTTYYADSVKGRFTISRDNAKNTLYLQMSSLRVEDTALYYCARVLPMGTFDYWGQGTLVTVSS
chain 2: DIQMTQSPSSLSASVGDRVTITCQASQDVNIYLNWYQQKPGKAPKLLISDASNLETGVPSRFSGSGSGTGFTFTISSLQPEDIATYYCQQYDNVPLTFGGGTKVEIK
B4: BD56-1344 (protein)
chain 1: QLQLQESGPGLVKPSETLSLTCSVSGGSISSSDYYWGWIRQPPGKGLEWIGNIFYSGTTYYNPSLKSRVTISVDTSENHFSLRLTSVTAADTAFYYCARFLRMATVLGGAYYFDYWGQGTLVTVSS
chain 2: QSALTQPPSASGSPGQSVTISCTGTSSDVGSYNYVSWYQQYPGKAPKLMIYEVTKRPSGVPDRISGSKSGNTASLTVSGLQAEDEADYYCSSYVGSNTLFGGGTKLTVL
B5: BD56-1392 (protein)
chain 1: QVQLVQSGAEVKKPGASVKVSCKASGYTFSDYYMHWVRQAPGQGLEWMGIINPTAGSTSYAQKFQGRVTMTTDTSTSTAYLELNSLRSEDTAIYYCARDLVLVPAADSLDHWGQGTLVTVSS
chain 2: EIVLTQSPATLSLSPGERATLSCRASQSISTYLAWYQQKPGQAPRLLIYDASNRATGIPARFSGSGSGTDFTLTISSLEPEDFALYYCQQRSGWPRLFTFGPGTKVDMK
B6: BD56-1402 (protein)
chain 1: EVQLVQSGAEVTKPGESLKISCQGSGYSFSTYWIHWVRQMPGKGLEWMGIIYPYDSDTRYSPSFQGQVTISADKSINTAYLQWSSLKASDTATYYCARSYNAYYYIMDVWGQGTTVTVSS
chain 2: QSVLTQPPSASGTPGQRVTISCSGSSSNIGSNTVNWYQQFPGTAPKLLMYSQNQRPSGVPDRFAGTKSGTSASLAISGLQSEDEADYYCAAWDDSLNGWVFGGGTKLTVL
B7: BD56-1335 (protein)
chain 1: QVQLVQSGAEVKKPGASVKVSCKASGYTFTSYYIHWVRQAPGQGLEWMGMINPSGGTTRSAQQFQGRVTMTRDTSTSTVYMELSSLRSDDTAVYFCAREVVVPAAGYMDVWGKGTTVTVSS
chain 2: SYVLTQPPSVSVAPGKTARITCGGDNIGSKSVHWYQQRPGQAPVLVVYHDSDRPSGIPERFSGSNSGNTATLTISGVEAGDEADYYCQVWDSISGHFYVFGTGTTVTVL

Human monoclonal antibodies against the spike receptor-binding domain (heavy:light variable regions). IC50 against pseudoviruses bearing the spike of naturally observed variants; lower = stronger; >10 µg/ml means not reached at the top dose. No active / inactive call. The stated detection limit is 0.0005 µg/ml; values near or below 0.001 µg/ml lie at the floor of the assay.

In the first assay the target is SARS-CoV-2 Omicron BA.1 spike pseudovirus. The assay can be described thus: pseudovirus neutralization IC50; higher = weaker neutralization. On the procedure:
(§1)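 Single-round VSV luciferase pseudovirus mixed with antibody dilutions for 1 h and put on Huh-7 cells for about a day; IC50 from the dose curve.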
With B1, the “pseudovirus neutralization IC50” value came out at 0.00565 µg/mL.

Take B2: the “pseudovirus neutralization IC50” value was above 10 µg/mL.

For B3, the “pseudovirus neutralization IC50” value was 0.00245 µg/mL.

As for B4, the “pseudovirus neutralization IC50” value is above 10 µg/mL.

Consider B5, for which the “pseudovirus neutralization IC50” value is above 10 µg/mL.

On to B6, for which the “pseudovirus neutralization IC50” value came to 0.541 µg/mL.

With B7, the “pseudovirus neutralization IC50” value was above 10 µg/mL.

The target in the next assay is SARS-CoV-2 Omicron BA.2 spike pseudovirus. The assay is described as above. On the procedure:
as §1
Consider B1, for which the “pseudovirus neutralization IC50” value came to 0.000691 µg/mL.

With B2, the “pseudovirus neutralization IC50” value was above 10 µg/mL.

As for B3, the “pseudovirus neutralization IC50” value amounted to 0.00168 µg/mL.

As to B4, the “pseudovirus neutralization IC50” value was above 10 µg/mL.

On to B5, for which the “pseudovirus neutralization IC50” value is above 10 µg/mL.

Consider B6, for which the “pseudovirus neutralization IC50” value came to 0.608 µg/mL.

For the molecule B7, the “pseudovirus neutralization IC50” value was above 10 µg/mL.

Another assay has as its target SARS-CoV-2 Omicron BA.2.75 spike pseudovirus. The description is as above. As for the experimental part: as §1
B1: the “pseudovirus neutralization IC50” value was 0.0513 µg/mL.

With B2, the “pseudovirus neutralization IC50” value was above 10 µg/mL.

With B3, the “pseudovirus neutralization IC50” value was 1.39 µg/mL.

As to B4, the “pseudovirus neutralization IC50” value is above 10 µg/mL.

For B5, the “pseudovirus neutralization IC50” value was above 10 µg/mL.

Consider B6, for which the “pseudovirus neutralization IC50” value was 0.416 µg/mL.

Take B7: the “pseudovirus neutralization IC50” value is above 10 µg/mL.

In a further assay the target is SARS-CoV-2 Omicron BA.5 spike pseudovirus. The description is as above. On the procedure: as §1
On to B1, for which the “pseudovirus neutralization IC50” value amounted to 0.00202 µg/mL.

Regarding B2, the “pseudovirus neutralization IC50” value was above 10 µg/mL.

Consider B3, for which the “pseudovirus neutralization IC50” value was determined as 0.0891 µg/mL.

Consider B4, for which the “pseudovirus neutralization IC50” value was above 10 µg/mL.

Consider B5, for which the “pseudovirus neutralization IC50” value was above 10 µg/mL.

B6: the “pseudovirus neutralization IC50” value worked out at 0.492 µg/mL.

In the case of B7, the “pseudovirus neutralization IC50” value is above 10 µg/mL.

A further assay addresses SARS-CoV-2 Omicron BQ.1.1 spike pseudovirus. Described as above. On the procedure: as §1
With B1, the “pseudovirus neutralization IC50” value stood at 0.452 µg/mL.

With B2, the “pseudovirus neutralization IC50” value was above 10 µg/mL.

As to B3, the “pseudovirus neutralization IC50” value was above 10 µg/mL.

As for B4, the “pseudovirus neutralization IC50” value was above 10 µg/mL.

With B5, the “pseudovirus neutralization IC50” value is above 10 µg/mL.

As to B6, the “pseudovirus neutralization IC50” value turned out to be 0.528 µg/mL.

Take B7: the “pseudovirus neutralization IC50” value is above 10 µg/mL.

The target in another assay is SARS-CoV-2 Omicron XBB spike pseudovirus. The assay is described as above. As for the experimental part:
as §1
For the molecule B1, the “pseudovirus neutralization IC50” value came to 0.628 µg/mL.

B2: the “pseudovirus neutralization IC50” value was above 10 µg/mL.

Consider B3, for which the “pseudovirus neutralization IC50” value was above 10 µg/mL.

On to B4, for which the “pseudovirus neutralization IC50” value is above 10 µg/mL.

Take B5: the “pseudovirus neutralization IC50” value was above 10 µg/mL.

With B6, the “pseudovirus neutralization IC50” value came out at 1.15 µg/mL.

Take B7: the “pseudovirus neutralization IC50” value was above 10 µg/mL.

For a further assay, the target named is SARS-CoV-2 early D614G spike pseudovirus. The assay is described as above. On the procedure: as §1
Turning to B1, the “pseudovirus neutralization IC50” value is 6.96 µg/mL.

For the molecule B2, the “pseudovirus neutralization IC50” value is above 10 µg/mL.

For B3, the “pseudovirus neutralization IC50” value was determined as 1.31 µg/mL.

As to B4, the “pseudovirus neutralization IC50” value is above 10 µg/mL.

As for B5, the “pseudovirus neutralization IC50” value was above 10 µg/mL.

For the molecule B6, the “pseudovirus neutralization IC50” value came to 1.19 µg/mL.

For B7, the “pseudovirus neutralization IC50” value was above 10 µg/mL.
